# Measurements: patent US5064946A, “Therapeutic nucleosides” (priority 1987, dated 1991)
# Tests used:
# [1] = tested on: HIV; assay: AZT/Interferon combinations vs. HIV in vitro in PBMC: reverse transcriptase (RT) activity of supernatants; format: cell-based; conditions: AZT 0; for mean reverse transcriptase value: Experiment 2-Day 10
# [2] = tested on: HIV p24; assay: AZT/Interferon combinations vs. HIV in vitro in PBMC: HIV p24 antigen by radioimmunoassay; format: cell-based; conditions: Experiment 4-Day 14, AZT 0
substance,measurement,setting,value
rIFNαA: recombinant α interferon (rIFNαA),mean reverse transcriptase value,[1]; rIFNαA 8 U/ml,173 cpm/10^6 cells × 10^3
same,mean reverse transcriptase value,[1]; rIFNαA 16 U/ml,150 cpm/10^6 cells × 10^3
same,mean reverse transcriptase value,[1]; rIFNαA 32 U/ml,193 cpm/10^6 cells × 10^3
same,mean reverse transcriptase value,[1]; rIFNαA 64 U/ml,169 cpm/10^6 cells × 10^3
same,mean reverse transcriptase value,[1]; rIFNαA 128 U/ml,151 cpm/10^6 cells × 10^3
same,mean RT value,"[1]; Experiment 3-Day 13, rIFNαA 16 U/ml",143 cpm/10^6 cells × 10^3
same,mean RT value,"[1]; Experiment 3-Day 13, rIFNαA 32 U/ml",117 cpm/10^6 cells × 10^3
same,mean RT value,"[1]; Experiment 3-Day 13, rIFNαA 64 U/ml",117 cpm/10^6 cells × 10^3
same,mean RT value,"[1]; Experiment 3-Day 13, rIFNαA 128 U/ml",130 cpm/10^6 cells × 10^3
same,mean RT value,"[1]; Experiment 4-Day 11, rIFNαA 32 U/ml",5 cpm/10^6 cells × 10^3
same,mean RT value,"[1]; Experiment 4-Day 11, rIFNαA 64 U/ml",4 cpm/10^6 cells × 10^3
same,mean RT value,"[1]; Experiment 4-Day 11, rIFNαA 128 U/ml",2 cpm/10^6 cells × 10^3
same,HIV p24,[2]; IFNαA 32 U/ml,100-200 ng protein/ml
same,HIV p24,[2]; IFNαA 64 U/ml,50-100 ng protein/ml
same,HIV p24,[2]; IFNαA 128 U/ml,25-30 ng protein/ml
